Results of unrelated studies side by side (data: NIAID ChemDB).

Common to all: growth or infection tests; organism: Mycobacterium tuberculosis

MIC bound comes from a single tested concentration. Inhibition is in % at the dose shown (toxicity tests: loss of growth or viability). Rows are shuffled and stem from different studies. Two numbers with a dash give a range or band. An empty or dashed field is not shown. A number after MIC or MFC names an inhibition level or a share of isolates.

| structure | tested at | measure | strain or isolate | cells | method | result |
|---|---|---|---|---|---|---|
| CO[C@H]1/C=C/O[C@@]2(C)Oc3c(C)c(O)c4c(O)c(c5c(c4c3C2=O)NC2(CCN(CC(C)C)CC2)N=5)=NC(=O)/C(C)=C\C=C\[C@H](C)[C@H](O)[C@@H](C)[C@@H](O)[C@@H](C)[C@H](OC(C)=O)[C@@H]1C | - | MIC | 2237 (rifampicin-susceptible) | - | - | 0.031 µg/mL |
| COc1ccccc1Sc1ccncc1 | 6.25 µg/mL | inhibition | H37Rv | - | - | 63% |
| Cc1ccc(NC=O)cc1F | - | MIC bound | H37Rv | - | BACTEC | >12.5 µg/mL |
| COc1cc([C@](O)(CCN(C)C)[C@@H](c2cc(-c3ccc(C#N)cc3)cnc2OC)c2cccc(OC)c2F)cc(OC)n1 | - | MIC90 | H37Rv | - | resazurin | 2.25 µM |
| c1ccc(CSc2nc3ccccc3o2)nc1 | - | MIC | My 331/88 | - | - | 62.5 µM |
| COc1c(N2CCNC(C)C2)c(F)cc2c(=O)c(C(=O)O)cn(C3CC3)c12 | - | MIC90 | 10 isolates ciprofloxacin-resistant | - | - | 3.13 µg/mL |
| Brc1ccc(N2COc3ccccc3C2)cc1 | - | MIC | - | - | absorbance | 2.5 µg/mL |
| NC(=Nc1nc(-c2ccccn2)cc2ccccc12)c1ccccn1 | - | MIC | H37Rv | - | - | 0.25 µg/mL |
| c1ccc(Oc2cccc3c2CCCN3)cc1 | - | MIC | - | - | - | >0.05 µg/mL |
| COc1cc(O)c2c(=O)c3cc(OC)c(O)c(O)c3oc2c1 | - | MIC | - | - | - | 10 µg/mL |
| COC1CCC(OC2CCCC(OC)C2)CC1 | - | MIC | - | - | - | >0.17 µg/mL |
| COc1ccccc1Sc1nc(Cl)nc2nc[nH]c12 | - | MIC90 | H37Rv | - | - | >6.25 µg/mL |
| CCCCCCCCO[C@H]1OC([C@@H](COC)O[C@H]2O[C@H]([C@@H](O)CO)[C@@H](O)[C@@H]2O)[C@@H](OC)[C@@H]1OC | - | MIC | H37Ra | - | - | >12.8 µg/mL |
| CCNc1cc(N)[n+](CC)c2n[nH]c(/N=C/c3cc(Cl)cc(Cl)c3O)c12 | 12.5 µg/mL | inhibition | H37Rv | - | BACTEC | -17% |
| OC1CC(O)CC(OC2CCCCC2)C1 | - | MIC | - | - | - | 0.06 µg/mL |
| c1ccc(CSc2nc3ccccc3s2)nc1 | - | MIC | My 331/88 | - | - | 250 µM |
| O=C(O)c1cnc(Cl)cn1 | - | MIC | ATCC 35828 | - | - | 256 µg/mL |
| c1ccc2[nH]c(SCc3ccncc3)nc2c1 | - | MIC | My 331/88 | - | - | 500 µM |
| CCCCCCCCc1ccc(Oc2ccccc2)c(O)c1 | - | MIC99 | NHN20 | - | - | 2.4 µg/mL |
| COc1cccc2c(=O)c3c(OC4OC(CO)C(O)C(O)C4O)cc(O)cc3oc12 | - | MIC | - | - | - | >200 µg/mL |
| O=C1NN2CCCN=C2c2cnccc21 | 12.5 µg/mL | inhibition | H37Rv | - | BACTEC | 4% |
| NC(=O)c1ncc(C(N)=S)nc1Nc1cccc(O)c1 | - | MIC | H37Rv | - | - | 25 µg/mL |
| COc1cc(C(O)(CCN(C)C)C(c2cc(-c3cccc(Cl)c3)cnc2OC)c2cccc(OC)c2F)cc(OC)n1 | - | MIC90 | H37Rv | - | resazurin | 8.3 µM |
| CCCCCCCCO[C@H]1O[C@H](CO[C@H]2O[C@H](CO)[C@@H](O)[C@@H]2O)[C@@H](OC)[C@@H]1OC | - | MIC | H37Ra | - | - | >128 µg/mL |
| O=C1OC2CCCCC2OC2CCCCC12 | - | MIC | - | - | - | 0.25 µg/mL |
| c1cncc(CSc2ncn[nH]2)c1 | - | MIC | My 331/88 | - | - | 1000 µM |
| C=C1C(=O)OC2C1C(OC(=O)/C(C)=C/C)CC(O)(CCl)C1C(OC(C)=O)C=C(C)C21O | - | MIC bound | H37Rv | - | BACTEC | >12.8 µg/mL |
| NNC(=O)c1ccncc1 | - | MIC99 | MC2 6230 | - | absorbance | 0.15 µM |
| COC1CCCCC1OC1CCCCC1C | - | MIC | - | - | - | >0.11 µg/mL |
| O=S1(F)=NP(N2CC2)(N2CC2)=NP(N2CC2)(N2CC2)=N1 | - | MIC bound | H37Rv | - | BACTEC | >128 µg/mL |
| C=CCN1C(=O)CS/C1=N\NC(=O)c1ccc(NC(=O)c2ccc(OC)cc2)cc1 | - | MIC | H37Rv | - | - | >6.25 µg/mL |
| Cc1cc(NS(=O)(=O)c2ccc(N=Nc3c(O)n(-c4ccccc4)n(-c4ccccc4)c3=O)cc2)no1 | 12.8 µg/mL | inhibition | H37Rv | - | BACTEC | 29% |
| O=C(Nc1ccc2ccc3cccnc3c2n1)c1ccccc1 | - | MIC | H37Rv | - | - | 0.25–1 µg/mL |
| CCCCNc1nc(C(N)=S)cnc1C(N)=O | - | MIC | H37Rv | - | - | 25 µg/mL |
| NNC(=O)c1ccncc1 | - | MIC99 | TN587 | - | - | 2.4 µg/mL |
| CCCCCCCCO[C@@H]1O[C@@H]([C@H](COC)O[C@H]2O[C@H](COCc3ccccc3)[C@@H](OCc3ccccc3)[C@@H]2OCc2ccccc2)[C@H](OC)[C@H]1OC | - | MIC | H37Ra | - | - | >128 µg/mL |
| COC(=O)[C@@H]1[C@H](O)[C@H](C)C(O)[C@H](C)/C=C\C=C(/C)C(=O)Nc2c(C)c(OC(C)=O)c3c(c2O)C(=O)C(C)=C2OCOC(=C23)/C(C)=C/[C@@](C)(O)[C@H](O)[C@@H](C)[C@H]1OC(C)=O | - | MIC | EMB-R | - | - | 12.5 µg/mL |
| Cc1cc2nc(C(=O)NC(C)C)cc(-c3ccccc3Cl)c2c(C)c1-c1ccncc1 | - | MIC90 | - | - | fluorescence | 0.6 µM |
| N#Cc1cc(SCc2cccc3ccccc23)ccn1 | - | MIC | My 331/88 | - | - | >125 µM |
| c1ccc2c3c([nH]c2c1)-c1[nH]ncc1CCC3 | 50 µg/mL | inhibition | H37Rv | - | resazurin | 0% |
| COc1cc([C@](O)(CCN(C)C)[C@@H](c2cc(-c3ccc(F)cc3)cnc2OC)c2cccc(OC)c2F)cc(OC)n1 | - | MIC90 | H37Rv | - | resazurin | 4.56 µM |
| Nc1nccc(NCCSCc2ccccc2)n1 | 12.5 µg/mL | inhibition | H37Rv | - | BACTEC | 41% |
| COc1cccc(CSc2ccccn2)c1 | 6.25 µg/mL | inhibition | H37Rv | - | - | 0% |
| CO[C@H]1/C=C/O[C@@]2(C)Oc3c(C)c(O)c4c(O)c(c(/C=N/N5CCN(C)CC5)c(O)c4c3C2=O)NC(=O)/C(C)=C\C=C\[C@H](C)[C@H](O)[C@@H](C)[C@@H](O)[C@@H](C)[C@H](OC(C)=O)[C@@H]1C | - | MIC | 23 strains (rifampicin-susceptible) | - | - | ≤0.6 µg/mL |
| COc1cc([C@@](O)(CCN(C)C)[C@@H](c2cc(-c3ccc(C)cc3)cnc2OC)c2cccc(OC)c2F)cc(OC)n1 | - | MIC90 | H37Rv | - | resazurin | 15.31 µM |
| CS | - | MIC | H37Rv | - | - | 0.01 µg/mL |
| CCSc1nc(Cl)nc2nc[nH]c12 | - | MIC | H37Ra | - | - | >12.8 µg/mL |
| COc1ccc(NC(=S)NNC(=O)c2ccc(NC(=O)c3ccc(OC)cc3)cc2)cc1 | - | MIC | H37Rv | - | - | >6.25 µg/mL |
| COc1cc(O)cc2oc3c(O)cccc3c(=O)c12 | - | MIC | - | - | - | >200 µg/mL |
| CCC1CCC2CN(/N=C/c3c4c(O)c5c(O)c(C)c6c(c5c3O)C(=O)[C@@](C)(O/C=C/[C@H](OC)[C@@H](C)[C@@H](OC(C)=O)[C@H](C)[C@H](O)[C@H](C)[C@@H](O)[C@@H](C)/C=C/C=C(/C)C(=O)N4)O6)CCN2C1 | - | MIC | 23 strains (rifampicin-susceptible) | - | - | ≤0.04 µg/mL |
| CC1CN([C@H]2C[C@H](O)[C@@H](CO)O2)C(=O)NC1=NC1CCCCCCCCCCC1 | - | MIC bound | H37Rv | - | resazurin | >6.25 µg/mL |
| O=[N+]([O-])c1ccccc1N1COc2ccccc2C1 | - | MIC | - | - | absorbance | 1.11 µg/mL |
| Cc1c2cnccc2c(C)c2c1c1ccccc1n2CCNCc1ccccc1 | - | MIC | H37Rv | VERO | resazurin | 0.78 µg/mL |
| O=[N+]([O-])c1ccc(N2COc3ccccc3C2)cc1 | - | MIC | - | - | absorbance | 1.71 µg/mL |
| O=c1ncc2c([nH]1)-c1[nH]c3ccccc3c1CCC2 | 50 µg/mL | inhibition | H37Rv | - | resazurin | 0% |
| CCOC(=O)CCCC(NC(=O)c1ccc(N2CCN(c3c(N)nc(N)nc3NC)CC2)cc1)C(=O)OCC | - | MIC bound | H37Rv | - | resazurin | >6.25 µg/mL |
| OCC1CCCCC1C1CCCCC1O | - | MIC | - | - | - | >1 µg/mL |
| COc1cccc2c1C(=O)c1c(O)c3c(c(O)c1C2=O)CC(O)(C(O)CO)CC3OC1CC(N2CCOCC2)C(O)C(C)O1 | - | MIC bound | H37Rv | - | resazurin | >6.25 µg/mL |
| COc1ccc(C(=O)Nc2ccc(C(=O)NNC(=S)Nc3ccc(C)cc3)cc2)cc1 | - | MIC | H37Rv | - | - | >6.25 µg/mL |
| COc1cc([C@@](O)(CCN(C)C)[C@@H](c2cc(-c3ccc(Cl)cc3)cnc2OC)c2cccc(OC)c2F)cc(OC)n1 | - | MIC90 | H37Rv | - | resazurin | 10.47 µM |
| CCCCCCCCOC1O[C@@H](C(O)COC2O[C@@H](C(O)CO)[C@H](O)[C@H]2O)[C@H](O)[C@H]1O | - | MIC | H37Ra | - | - | >128 µg/mL |
| Cc1cccc2c3c([nH]c12)-c1[nH]c(=O)ncc1CCC3 | 50 µg/mL | inhibition | H37Rv | - | resazurin | 0% |
| C[N+](C)=c1ccc2nc3c(cc(N)c4ccccc43)oc-2c1 | 12.5 µg/mL | inhibition | H37Rv | - | BACTEC | 100% |
| COc1ccc(C(=O)Nc2ccc(-c3nnc(Nc4ccccc4)o3)cc2)cc1 | - | MIC | H37Rv | - | - | >6.25 µg/mL |
| CCCCCCCCO[C@@H]1OC(C(CO[C@@H]2O[C@@H]([C@H](O)CO)[C@H](O)[C@H]2O)OC(C)=O)[C@H](OC(C)=O)[C@H]1OC(C)=O | - | MIC | H37Ra | - | - | >128 µg/mL |
| C=CCC1=CC2(OC)C1C(OC)(OC)C(=O)C1(CC=C)C=C(OC)C(=O)C(OC)(OC)C12 | 12.5 µg/mL | inhibition | H37Rv | - | BACTEC | -6% |
| CCOc1cc(C2SCC(=O)N2NC(=O)c2ccc(NC(=O)c3ccc(OC)cc3)cc2)ccc1O | - | MIC | H37Rv | - | - | >6.25 µg/mL |
| O=[N+]([O-])c1ccc(N/N=C/c2ccccc2O)nc1 | - | MIC | H37Rv | - | BACTEC | ≥12.5 µg/mL |
| c1ccc(CSc2ccccn2)cc1 | - | MIC | H37Ra | - | - | >12.8 µg/mL |
| NC(=O)c1ncc(C(N)=S)nc1Nc1ccccc1 | - | MIC | H37Rv | - | - | 50 µg/mL |
| CSC[C@H](NC(=O)COc1cccc2cnccc12)C(=O)N[C@@H](Cc1ccccc1)[C@H](O)C(=O)N1CSC[C@H]1C(=O)NC(C)(C)C | - | MIC bound | H37Rv | - | BACTEC | >12.5 µg/mL |
| CCCCN(CCCC)c1nc(C(N)=S)cnc1C(N)=O | - | MIC | H37Rv | - | - | 100 µg/mL |
| C=C(C)C1CC/C(C)=C\CCC2(C)OC2CC/C(CO)=C\C1O | - | MIC | H37Rv | - | BACTEC | ≥12.5 µg/mL |
| Cc1ccc2nc(SCc3cccnc3)[nH]c2c1 | - | MIC | My 331/88 | - | - | 250 µM |
| Cc1ccc(CSc2ncccn2)cc1 | - | MIC | H37Ra | - | - | >12.8 µg/mL |
| C=C1CC[C@H]2C(C)=CC[C@@H]3[C@H](OC(=O)[C@H]3COC)[C@@H]12 | - | MIC bound | H37Rv | - | BACTEC | >12.5 µg/mL |
| NC(=Nc1nc(-c2ccccn2)cc2ccccc12)c1ccccc1 | - | MIC | H37Rv | - | - | 0.25 µg/mL |
| Cc1cccc(Nc2nc(C(N)=S)cnc2C(N)=O)c1 | - | MIC | H37Rv | - | - | >100 µg/mL |
| CC1=C2[C@@H]3OC(=O)[C@H](C)[C@H]3CC[C@]2(C)C=C/C1=N\O | 12.8 µg/mL | inhibition | H37Rv | - | BACTEC | -5% |
| COc1ccc(C(=O)Nc2ccc(C(=O)NN3C(=O)CSC3c3ccc(F)cc3)cc2)cc1 | - | MIC | H37Rv | - | - | >6.25 µg/mL |
| CCCN(CCC)c1nc(C(N)=S)cnc1C(N)=O | - | MIC | H37Rv | - | - | 25 µg/mL |
| O=c1c2c(O)cc(O)cc2oc2c(O)ccc(O)c12 | - | MIC | - | - | - | 100 µg/mL |
| O=c1c2ccccc2c2ccccc2c(=O)n1-c1ccc2c(c1)Cc1ccccc1-2 | 12.5 µg/mL | inhibition | H37Rv | - | BACTEC | 36% |
| CO[C@H]1/C=C/O[C@@]2(C)Oc3c(C)c(O)c4c(O)c(c(/C=N/N5CCN(C6CCCC6)CC5)c(O)c4c3C2=O)NC(=O)/C(C)=C\C=C\[C@H](C)[C@H](O)[C@@H](C)[C@@H](O)[C@@H](C)[C@H](OC(C)=O)[C@@H]1C | - | MIC | 23 strains (rifampicin-susceptible) | - | - | ≤0.16 µg/mL |

For reference, 8 entries again:

structure | tested at | measure | strain or isolate | cells | method | result
CCCCCCCCO[C@@H]1O[C@@H]([C@H](COC)O[C@H]2O[C@H](COCc3ccccc3)[C@@H](OCc3ccccc3)[C@@H]2OCc2ccccc2)[C@H](OC)[C@H]1OC | - | MIC | H37Ra | - | - | >128 µg/mL
c1ccc2[nH]c(SCc3ccncc3)nc2c1 | - | MIC | My 331/88 | - | - | 500 µM
COc1cc([C@@](O)(CCN(C)C)[C@@H](c2cc(-c3ccc(C)cc3)cnc2OC)c2cccc(OC)c2F)cc(OC)n1 | - | MIC90 | H37Rv | - | resazurin | 15.31 µM
CCCCNc1nc(C(N)=S)cnc1C(N)=O | - | MIC | H37Rv | - | - | 25 µg/mL
O=C(O)c1cnc(Cl)cn1 | - | MIC | ATCC 35828 | - | - | 256 µg/mL
COc1ccccc1Sc1nc(Cl)nc2nc[nH]c12 | - | MIC90 | H37Rv | - | - | >6.25 µg/mL
COc1ccc(C(=O)Nc2ccc(C(=O)NN3C(=O)CSC3c3ccc(F)cc3)cc2)cc1 | - | MIC | H37Rv | - | - | >6.25 µg/mL
O=C(Nc1ccc2ccc3cccnc3c2n1)c1ccccc1 | - | MIC | H37Rv | - | - | 0.25–1 µg/mL